Results deposited as PubChem BioAssay AID504761 (Drosophila RNAi Screening Center, 2011).
Assay: 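Genome-wide fly cell screen for genes dengue virus requires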 (primary screen). Cell system: D.Mel-2 cells from Drosophila. Reagent: long dsRNA against Drosophila genes. Challenge: infection with dengue virus type 2; dose and infection time not stated. Read-out: 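Cells stained for dengue envelope protein and imaged; percent of infected cells per well on duplicate plates, ranked by infection, with stained nuclei counted for cell number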. Scale: infection score: higher = more virus-infected cells; cell count: higher = more cells in the well. Hit rule: 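Low infection ranks in the two replicates (chance level up to 0.065) followed by a retest with a 1.5-fold or larger significant decrease, p below 0.05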. Meaning of the calls: active = confirmed: knock-down lowers infection; inactive = not picked or not confirmed.
The deposit covers about 22,000 reagents; shown is a random part of those that have a named target and a result. Over the whole deposit, 116 (0.52%) were called active. 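Calls depend on retest data that are not deposited; infection was ranked per plate without normalising between plates; the unit of the infection score is not given.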 Raw values are not corrected between plates. The numbers tell different reagents against one gene apart. Names joined by + are all predicted targets of the reagent. The record does not give: the amount of reagent, the time to read-out.

gene	reagent	infection score, replicate 1	infection score, replicate 2	cell count, replicate 1	cell count, replicate 2	Outcome
mtsh (mitoshell)	1	2.94	23.1	5716	3506	inactive
CG12835 (retired record)	1	10.4	15.9	5576	6157	inactive
CG12835 (retired record)	2	3.58	22.1	6974	6154	inactive
eEF1delta (eukaryotic translation elongation factor 1 delta)	1	16	9.02	6631	6604	inactive
eEF1delta (eukaryotic translation elongation factor 1 delta)	2	6.03	2.37	6366	6824	inactive
be (ben)	1	6.57	17.9	6548	4379	inactive
be (ben)	2	10.9	12.4	5877	6309	inactive
be (ben)	3	7.54	8.78	4272	5718	inactive
Cyp6d5 (Cytochrome P450 6d5)	1	19.9	17	5763	5600	inactive
Cyp6d5 (Cytochrome P450 6d5)	2	6.48	1.73	6548	5961	inactive
slmo + CG34179	1	4.56	4.7	6080	6361	inactive
CG13587	1	8.76	8.83	6665	6613	inactive
CG13587	2	9.58	9.96	5826	5462	inactive
wa-cup (walker cup)	1	3.66	13.2	6467	5760	inactive

Part of the list above, set out differently.
gene | reagent | infection score, replicate 1 | infection score, replicate 2 | cell count, replicate 1 | cell count, replicate 2 | Outcome
CG12835 (retired record) | 2 | 3.58 | 22.1 | 6974 | 6154 | inactive
eEF1delta (eukaryotic translation elongation factor 1 delta) | 1 | 16 | 9.02 | 6631 | 6604 | inactive

Additional reagents:
gene	reagent	infection score, replicate 1	infection score, replicate 2	cell count, replicate 1	cell count, replicate 2	Outcome
Gbs-70E (Glycogen binding subunit 70E)	1	5.18	5.25	6254	6325	inactive
CG6125	1	3.36	5.85	6398	6698	inactive
Usp30 (Ubiquitin specific protease 30)	1	0.58	0.98	6895	6830	inactive
Usp30 (Ubiquitin specific protease 30)	2		23.2	334	3616	inactive
al (aristaless)	1	1.62	4.17	6614	6641	inactive
H15	1	3.51	5.04	6562	6529	inactive
H15	2	0.65	0.79	6573	6482	active
H15	3	1.29	5.91	6262	6058	inactive
CG10752	1	6.33	5.82	6553	6287	inactive
